Compound potency records, mixed from different reports. Data source: NIAID ChemDB in PubChem.

Common to all: growth or infection tests; organism: Hepatitis C virus; read-out: EC50

a–b is a range or a potency band. Lines come from different laboratories, so protocols vary. An empty or dashed field is not shown. ECn is the concentration giving n% inhibition of infection, replication or growth.

| smiles | strain or isolate | changes | cell line | read by | value |
|---|---|---|---|---|---|
| OCc1nnc(-c2ccc(N3CC(Oc4ccccc4C(F)(F)F)C3)nn2)o1 | GT1a |  | Huh7 | PCR | 0.0022 µM |
| COc1ccc(OCCCCCOc2cccc(NC(N)=S)c2)c2ccccc12 |  |  | Ava5-EG(delta4AB)SEAP | reporter gene / fluorescence | 0.001–1 µM |
| CN(C)[C@@H](C(=O)N1CCC[C@H]1c1ncc(-c2ccc(-c3ccc(-c4cnc([C@@H]5CCCN5C(=O)[C@@H](c5ccccc5)N(C)C)[nH]4)cn3)cc2)[nH]1)c1ccccc1 | 1b |  |  |  | 0.00001–0.000999 µM |
| COC(=O)N[C@H](C(=O)N1CCC[C@H]1c1ncc(-c2ccc(-c3ccc(-c4cnc([C@@H]5CCCN5C(=O)[C@@H](NC(=O)OC)C(C)C)[nH]4)cc3)cc2)[nH]1)C(C)C | 1b |  | ET | luciferase | 0.0000052 µM |
| CC1(C)CC(=O)C2=C(C1)Nc1c(O)cccc1N(C(=O)c1ccc3ncccc3n1)C2c1ccc(OCc2ccccc2)cc1F | 1b |  |  | luciferase / reporter gene / replicon | 0.4 µM |
| CNC(=O)c1c(-c2ccc(F)cc2)oc2cc(N3CCOCC3)c(OCc3ccc(C(=O)OC)cc3)cc12 |  |  | Huh7 | replicon | <10 µM |
| CCCCCNC(=S)Nc1ccc2c(c1)Cc1cc(Br)ccc1-2 |  |  | Ava5-EG(delta4AB)SEAP | reporter gene / fluorescence | 0.001–1 µM |
| CCCCCCCCOc1ccc(N(C(C)=O)c2nc(-c3cccnc3)cs2)cc1C(F)(F)F |  |  |  |  | <1 µM |
| CC1(C)CC(=O)C2=C(C1)Nc1c(O)cccc1N(C(=O)OCC(=O)O)C2c1ccc(OCc2ccccc2)cc1Cl | 1b |  |  | luciferase / reporter gene / replicon | 57.62 µM |
| CNC(=O)c1c(-c2ccc(F)cc2)oc2cc(Br)c(OC(C)C)cc12 |  |  | Huh7 | replicon | <1 µM |
| CC(C)Oc1nc(N)nc2ccc(-c3ccc(C(=O)NC4CC4)cc3)nc12 |  |  | Huh7 | replicon | <0.3 µM |
| O=C(N[C@@H](C(=O)N1CCC[C@H]1c1ncc(-c2ccc(-c3ccc(-c4cnc([C@@H]5CCCN5C(=O)[C@H](NC(=O)C5CC5)c5ccccc5)s4)cc3)cc2)s1)c1ccccc1)C1CC1 | genotype 1b | M265V | Huh7.5 | luciferase / reporter gene | 0.000002 µM |
| CNC(=O)c1c(-c2ccc(F)cc2)oc2cc(-c3nc(C)nn3C)c(OC)cc12 |  |  | Huh7 | replicon | <10 µM |
| NC(=S)Nc1ccc2c(c1)Cc1cc(NC(N)=S)ccc1-2 |  |  | Ava5-EG(delta4AB)SEAP | reporter gene / fluorescence | 0.001–1 µM |
| O=C(Nc1ccc(-c2ccc3nc(NCc4ccc(F)cc4)nc(NCC(F)(F)F)c3n2)cc1)C1(O)CC1 |  |  |  | replicon | <0.1 µM |
| CC(C)N(C(=O)c1ccc(Cl)cc1Cl)c1cc(-c2ccc(-c3cn4ccccc4n3)cc2)sc1C(=O)O | 1b |  |  | replicon / ELISA | 0.05–0.1 µM |
| COC(=O)/C=C/c1ccc(NC(=O)C2(NC(=O)c3ccc4c(C5CCCCC5)c5c6ccccc6ncn5c4c3)CCCC2)cc1 |  |  | Huh7 | replicon | 1–10 µM |
| CC(C)N(C(=O)c1ccc(Cl)cc1Cl)c1cc(-c2ccc(-c3cc4ncccc4o3)cc2)sc1C(=O)O | 1b |  |  | replicon / ELISA | 0.01–0.05 µM |
| NC(=S)Nc1cccc(OCCCCCCCOc2ccc(-c3ccccc3)cc2)c1 |  |  | Ava5-EG(delta4AB)SEAP | reporter gene / fluorescence | 0.001–1 µM |
| CCOc1nc(NCc2ccc(F)cc2)nc2ccc(-c3ccc(NC(=O)C4CC4)nc3)nc12 |  |  |  | replicon | <0.1 µM |
| CNC(=O)c1c(-c2ccc(F)cc2)oc2cc(OC)c(OC)cc12 |  |  | Huh7 | replicon | <1 µM |
| COc1c(-c2ccc3cc(NS(C)(=O)=O)ccc3c2)cc(-n2ccc(=O)[nH]c2=O)cc1C(C)(C)C | genotype 1a H77 | M414T | Huh7 | luciferase | 0.031 µM |
| CCCCCCCCOc1ccc(N(C(=O)CN(C)C)c2nc(-c3cccnc3)c(F)s2)cc1C(F)(F)F |  |  |  |  | <1 µM |
| COCC(C)N(C(=O)c1ccc(Cl)cc1Cl)c1cc(-c2ccccc2)sc1C(=O)O | 1b |  |  | luciferase / replicon | 1–5 µM |
| CCN(C)c1cc2oc(-c3ccc(F)cc3)c(C(=O)NC)c2c(Cl)c1OC |  |  | Huh7 | replicon | <10 µM |
| CC(C)(O)[C@@H](O)CCCC1CC[C@@]2(C)[C@@H]3CCC4C(C)(C)[C@H](O)CC[C@]4(C)C3=CC[C@]12C | Jc1 |  | n4mBid cells | ATP | 1.33 µM |
| CC(C)C(=O)N1c2cccc(O)c2NC2=C(C(=O)CC(C)(C)C2)C1c1ccc(NCc2ccccc2)nc1Cl | 1b |  |  | luciferase / reporter gene / replicon | 15.04 µM |
| CCCCOc1ccc(N(C(N)=O)c2nc(-c3ccc(O)c(C(N)=O)c3)cs2)cc1C(F)(F)F |  |  |  |  | <1 µM |
| CS(=O)(=O)NC(=O)c1ccc2c(C3CCCCC3)c3n(c2c1)CCNc1ccccc1-3 |  |  | Huh7 | replicon | 0.01–1 µM |
| COc1ccc(N(C(N)=O)c2nc(-c3cccnc3)cs2)cc1C(F)(F)F |  |  |  |  | <1 µM |
| CCOC(C)(C)[C@@H](O)CC[C@@H](C)[C@H]1CC[C@@]2(C)[C@@H]3CC[C@H]4C(C)(C)[C@@H](O)CC[C@]4(C)C3=CC[C@]12C | Jc1 |  | n4mBid cells | ATP | >100 µM |
| CCOc1nc(NCCOC)nc2ccc(-c3ccc(F)cc3)nc12 |  |  |  | replicon | <0.1 µM |
| COC(=O)N[C@H](C(=O)N1CCC[C@@H]1c1ncc(-c2ccc(-c3ncc(-c4cnc([C@H]5CCCN5C(=O)[C@@H](NC(=O)OC)C(C)C)[nH]4)cn3)cc2)[nH]1)C(C)C | 1b |  |  |  | 0.00001–0.000999 µM |
| NC(=S)Nc1cccc(OCCCCOc2cccc3ccccc23)c1 |  |  | Ava5-EG(delta4AB)SEAP | reporter gene / fluorescence | 0.001–1 µM |
| O=C([C@@H](O)c1ccccc1)N1CCC[C@H]1c1ncc(-c2ccc(-c3ccc(-c4cnc([C@@H]5CCCN5C(=O)[C@H](O)c5ccccc5)[nH]4)cn3)cc2)[nH]1 | 1b |  |  |  | 0.001–0.099 µM |
| CNC(=O)c1c(-c2ccc(F)cc2)oc2cc(N3CCOCC3)c(OCc3cscn3)cc12 |  |  | Huh7 | replicon | <1 µM |
| CC1(C)CC(=O)C2=C(C1)Nc1c(O)cccc1NC2c1c(OC(F)F)ccc2ccccc12 | 1b |  |  | luciferase / reporter gene / replicon | >32 µM |
| CC(=O)c1ccc(-c2cc(N(C(=O)c3ccc(Cl)cc3Cl)C(C)C)c(C(=O)O)s2)s1 | 1b |  |  | luciferase / replicon | >5 µM |
| CCOC(=O)[C@@H](NC(=O)N[C@H](C(=O)N1CC[C@H]2[C@H]1C(C1CCC1)C(=O)N2C(=O)C1CC1)C(C)C)C(C)C |  |  | Huh7 | ELISA | 0.3 µM |
| COC(=O)N[C@H](C(=O)N1CCC[C@@H]1c1ncc(-c2ccc(-c3ccc(-c4cnc([C@@]5(C)CCCN5C(=O)[C@@H](Nc5n[nH]c(N)n5)C(C)C)[nH]4)cc3)cc2)[nH]1)C(C)C | 1b |  |  |  | 0.00001–0.000999 µM |
| C[C@H](CC[C@H](O)C(C)(C)O)[C@H]1CC[C@@]2(C)[C@@H]3CC[C@H]4C(C)(C)C(=O)CC[C@]4(C)C3=CC[C@]12C | Jc1 |  | n4mBid cells | ATP | 2.67 µM |
| NC(=S)Nc1cccc(OCCCCCOc2ccc(-c3ccc(Cl)cc3)cc2)c1 |  |  | Ava5-EG(delta4AB)SEAP | reporter gene / fluorescence | 0.001–1 µM |
| NS(=O)(=O)c1ccc(CNc2nc(NCC(F)(F)F)c3nc(-n4cncn4)ccc3n2)cc1 |  |  |  | replicon | <0.1 µM |
| CCCCCCCOc1ccc(N(C(=O)C(=O)OC)c2nc(-c3cccnc3)cs2)cc1 |  |  |  |  | <1 µM |
| NS(=O)(=O)c1ccc(CNc2nc(NCC(F)(F)F)c3nc(-n4ccnc4)ccc3n2)cc1 |  |  |  | replicon | <0.1 µM |
| CC(C)[C@H](NC(=O)N[C@H](C(=O)N1CC[C@H]2[C@H]1C(C1CCC1)C(=O)N2C(=O)C1CC1)C(C)C)C(=O)N1CCN(c2ncccn2)CC1 |  |  | Huh7 | ELISA | 0.45 µM |
| COCCNC(=O)CCC(=O)N1c2cccc(O)c2NC2=C(C(=O)CC(C)(C)C2)C1c1ccc(OCc2ccccc2)cc1Cl | 1b |  |  | luciferase / reporter gene / replicon | 24.74 µM |
| COC(=O)N[C@@H](C(=O)N1CCC[C@H]1c1ncc(-c2ccc(-c3ccc(-c4cnc([C@@H]5CCCN5C(=O)Cc5cccnc5)[nH]4)cn3)cc2)[nH]1)c1ccccc1 | 1b |  |  |  | 0.00001–0.000999 µM |
| CCOc1nc(NCc2c(F)cc(OC)cc2F)nc2ccc(-c3ccc(F)cc3)nc12 |  |  |  | replicon | <0.1 µM |
| CCCCCCCCOc1ccc(N(COC(=O)C(C)(C)C)c2nc(-c3cccnc3)c(F)s2)cc1C(F)(F)F |  |  |  |  | <1 µM |
| OCc1nnc(-c2ccc(N3CCC(Oc4ccccc4C(F)(F)F)CC3)nn2)o1 | GT1b |  | Huh7 | PCR | 0.0019 µM |
| C[C@H](N)C(=O)Nc1ccc(-c2ccc3nc(NCc4ccc(S(N)(=O)=O)cc4)nc(NCC(F)(F)F)c3n2)cc1F |  |  |  | replicon | <0.1 µM |
| O=C(O)c1sc(-c2ccc(-c3cc4ncccn4n3)cc2)cc1N(C(=O)c1ccc(Cl)cc1F)C1CCOCC1 | 1a |  |  | luciferase / replicon | 0.05–0.1 µM |
| CN1C(=O)Cn2c(c(C3CCCCC3)c3ccc(C(=O)NC4(C(=O)Nc5ccc6c(c5)cc(C(=O)O)n6C)CCCC4)cc32)-c2ccccc21 |  |  | Huh7 | replicon | 0.01–1 µM |
| COc1cc2oc(-c3ccc(O)cc3)c(OC)c(=O)c2c(O)c1C | Jc1 |  | n4mBid cells | ATP | 2.25 µM |
| CC(C)N(C(=O)c1ccc(Cl)cc1Cl)c1cc(-c2ccc(-c3nn[nH]n3)cc2)sc1C(=O)O | 1b |  |  | luciferase / replicon | >5 µM |
| CCCCCCCCOc1ccc(N(C(=O)CNC(=O)OC(C)(C)C)c2nc(-c3cccnc3)c(F)s2)cc1C(F)(F)F |  |  |  |  | <1 µM |
| COc1ccc(-c2nc3ccc(NCc4ccc(Cl)c(C(F)(F)F)c4)cc3n(CCNC(C)=O)c2=O)cc1 | GT1a |  | Huh7 | PCR | 0.0058 µM |
| CCCN(CCC)CCSc1nnc2c(n1)[nH]c1ccccc12 | genotype 1b |  | Huh 5-2 | cytopathic effect | >50 µM |
| O=C(O)c1ccc2c(C3CCCCC3)c3n(c2c1)C[C@@H](O)[C@@H](O)c1ncccc1-3 |  |  | Huh7 | replicon | 1–10 µM |
| CC1(C)CC(=O)C2=C(C1)Nc1c(O)cccc1N(C(=O)CC#N)[C@@H]2c1ccc(OCc2ccccc2)cc1Cl | 1b |  |  | luciferase / reporter gene / replicon | 4.15 µM |
| CNC(=O)c1c(-c2ccc(F)cc2)oc2ccc(Cl)cc12 |  |  | Huh7 | replicon | <10 µM |
| CC1(C)CC(=O)C2=C(C1)Nc1c(O)cccc1N(C(=O)c1cscn1)[C@@H]2c1ccc(OCc2ccccc2)cc1F | 1b |  |  | luciferase / reporter gene / replicon | 10.95 µM |
| COC(=O)N[C@@H](C(=O)N[C@@H](C)c1ncc(-c2ccc(-c3ncc(-c4cnc([C@H]5CCCN5C(=O)[C@@H](c5ccccc5)N5CCCCC5)[nH]4)cn3)cc2)[nH]1)c1ccccc1 | 1b |  |  |  | 0.00001–0.000999 µM |

The first 3 rows once more:

smiles | strain or isolate | changes | cell line | read by | value
OCc1nnc(-c2ccc(N3CC(Oc4ccccc4C(F)(F)F)C3)nn2)o1 | GT1a |  | Huh7 | PCR | 0.0022 µM
COc1ccc(OCCCCCOc2cccc(NC(N)=S)c2)c2ccccc12 |  |  | Ava5-EG(delta4AB)SEAP | reporter gene / fluorescence | 0.001–1 µM
CN(C)[C@@H](C(=O)N1CCC[C@H]1c1ncc(-c2ccc(-c3ccc(-c4cnc([C@@H]5CCCN5C(=O)[C@@H](c5ccccc5)N(C)C)[nH]4)cn3)cc2)[nH]1)c1ccccc1 | 1b |  |  |  | 0.00001–0.000999 µM